In patent US6642365B1, “Anti-(retro)viral conjugates of saccharides and acetamidino or guanidino compounds” (Yeda Research and Development Co. Ltd., priority 2001, dated 2003):

Columns and labels:
[1] = system: MT-2 cells as well as PMBC lines ETH and IS; details: 2 days incubation
Procedure: (§1) The cells were infected by incubation with different titers of the HIV-1 strains for 2 hrs at 37° C. in the presence or absence of the AAC of the invention. Then the cells were washed from the virus by centrifugation at 400 g and the supernatants were discarded. The cells were resuspended in culture medium, supplemented with different concentrations of the test compounds. The cells were allowed to proliferate for 5 days, the number of viable cells was quantified by a tetrazolium-based colorimetric method (CellTiter 96® AQueous One solution Cell Proliferation Assay, Promega). Anti-HIV activity in P4-CCR5 MAGI cells was done as follows: cells (1×10^5/ml) were infected with 10 ng/ml of p24 antigen of HIV-1 Ba-L in the presence of varying concentrations of the test compound. 24 hours post infection, cells were washed twice with PBS and resuspended in the medium containing the appropriate drug concentration. Five days after infection the cells were washed with PBS and evaluated for β-galactosidase activity.

MT-4 cells = test: Cytotoxicity in MT-4 cells, MTT; type: cell-based, human; details: viability of MT-4 cells, MTT assay
Procedure: as §1

“Hexa/penta-argininamido-neomycin B conjugate [NeoR]” gave a CC50 [1] of 250 µM.
Work on SDF-1α yielded a CC50 (MT-4 cells) of over 0.1 µM.
Substance “Triargininamido-gentamicin conjugate [R3G]” has a CC50 (MT-4 cells) of over 3940 µM and a CC50 [1] of over 500 µM.
